Values joined by “and” are separate entries in the source; they are usually repeats but may differ in a detail not shown here. Identical values can stand only once. Like-named read-outs stand apart in the source and are kept apart here.
Columns and labels:
Dd2^G358S (PfATP4^G358S) = test: Drug susceptibility assay for cross-resistance profiling (Fidock Lab), G358S; format: cell-based, Plasmodium falciparum; conditions: for EC50: Plasmodium falciparum, DD2
[1] = test system: Pf3D7 trophozoite-stage parasites, cytosolic pH (pHcyt); cell-based assay for ATP4 inhibition; test: P. falciparum cytosolic dose response pH assay (BCECF, with concanamycin A); conditions: Pf3D7, CMA 50 nM
[2] = Table S8 independent data set, read-out: EC50, Dd2G358S (Dd2-SJ16-D2)
[3] = SJ733-selected line, Table 3 data set, read-out: EC50, Dd2^G358S

| SMILES | EC50 (Dd2^G358S (PfATP4^G358S); [2]) | EC50 (Dd2^G358S (PfATP4^G358S); [3]) | EC50 fold-change vs Dd2-B2, Dd2^G358S (Dd2^G358S (PfATP4^G358S); Table 3 data set) | Fold change vs Dd2-B2, Dd2G358S (Dd2^G358S (PfATP4^G358S); Table S8 independent data set) | effect on parasite cytosolic pH (pHcyt) in presence of CMA (in words) [1] |
| --- | --- | --- | --- | --- | --- |
| N#Cc1cc(NC(=O)[C@H]2c3ccccc3C(=O)N(CC(F)(F)F)[C@@H]2c2cccnc2)ccc1F [SJ733] | 31000 nM | – | – | – | – |
| C[C@H]1Cc2c([nH]c3cc(Cl)c(F)cc23)[C@@]2(N1)C(=O)Nc1ccc(Cl)cc12 [KAE609, cipargamin, reference compound] | 1500 nM | 755 ± 79 nM | 600- to 700 fold and 580 fold | 710 fold | – |
| Cc1nn(CCNC(=O)Cn2c(C)c(C#N)c3ccccc32)c(C)c1Cl [compound 3, N-(2-(4-chloro-3,5-dimethyl-1H-pyrazol-1-yl)ethyl)-2-(3-cyano-2-methyl-1H-indol-1-yl)acetamide] | – | 1000 ± 110 nM | 1.9 fold | – | – |
| Cc1ccnc(NC(=O)Cn2cccc2-c2nc(-c3ccccc3)cs2)c1 [compound 2, N-(4-methylpyridin-2-yl)-2-(2-(4-phenylthiazol-2-yl)-1H-pyrrol-1-yl)acetamide] | – | 220 ± 18 nM | – | – | – |
| Cc1cc(Nc2ccc(S(F)(F)(F)(F)F)cc2)n2nc(C(C)(F)F)nc2n1 [DSM265, reference compound] | – | – | – | – | did not lead to alkalinization of the parasite cytosol |
